Measured values from several laboratories, pooled; numbers as filed in NIAID ChemDB.

All rows: tests in culture; agent: HIV-1; cells: MT-4; read by: MTT; endpoint: EC50

ECn: concentration that inhibits the pathogen or its effect by n%.

COc1ccc(Nc2nnc(C(C)NS(=O)(=O)c3ccc(Cl)cc3)s2)cc1 ; strain or isolate: IIIB ; result: >21.38 µM
Cc1cc(C#CCCO)cc(C)c1Oc1ccnc(Nc2ccc(C#N)cc2)n1 ; strain or isolate: IIIB ; changes: Y181C ; result: 0.185 µM
Cc1cc(/C=C/C#N)cc(C)c1Oc1nc(NC2CCN(Cc3ccccn3)CC2)nc2ccsc12 ; strain or isolate: IIIB ; changes: NNRTI-resistant (RT L100I) ; result: 0.0184 µM
Cc1ccc(S(=O)(=O)NC(c2nnc(Nc3ccc(F)cc3)s2)C(C)C)cc1 ; strain or isolate: IIIB ; result: >9.5 µM
Cc1cc(/C=C/C#N)cc(C)c1Oc1nc(NC2CCN(Cc3ccccc3F)CC2)nc2ccsc12 ; strain or isolate: IIIB ; changes: NNRTI-resistant (RT L100I) ; result: 0.0304 µM
Cc1cn([C@H]2C[C@H](N=[N+]=[N-])[C@@H](CO)O2)c(=O)[nH]c1=O ; strain or isolate: IIIB ; changes: Y181C ; result: 0.012 µM
Cc1cc(C)c(Oc2ncc(NC(=O)C(F)(F)F)c(Nc3ccc(C#N)cc3)n2)c(C)c1 ; strain or isolate: IIIB ; result: 0.039 µM
Cc1ccc(CN2CCC(Nc3nc(Oc4c(C)cc(/C=C/C#N)cc4C)c4sccc4n3)CC2)cc1 ; strain or isolate: IIIB ; changes: NNRTI-resistant (RT Y188L) ; result: 0.138 µM
CCc1c(Cc2ccccc2)n(COCCc2ccccc2)c(=O)[nH]c1=O ; strain or isolate: A17 ; changes: K103N/Y181C ; result: >43 µM
Cc1ccc(S(=O)(=O)NC(Cc2ccccc2)c2nnc(Nc3ccc(F)cc3)s2)cc1 ; strain or isolate: IIIB ; result: >2.06 µM
Nc1ccc(-c2nnc3sc(-c4cc5ccccc5oc4=O)nn23)cc1 ; strain or isolate: IIIB ; result: >108.3 µg/mL
N#Cc1ccc(Nc2nc(Oc3c(Br)cc(Br)cc3Br)ncc2[N+](=O)[O-])cc1 ; strain or isolate: RES056 ; result: >20 µM
Cc1ccc2sn(/N=C/c3ccccc3O)c(=O)c2c1 ; changes: EFV-resistant (K103 V179D P225H) ; result: >30 µM
Cc1cn([C@H]2C[C@H](N=[N+]=[N-])[C@@H](CO)O2)c(=O)[nH]c1=O ; strain or isolate: IIIB ; changes: MDR ; result: 0.08 µM
C=C(C)COCn1c(Cc2ccccc2)c(CF)c(=O)[nH]c1=O ; strain or isolate: IIIB ; changes: K103N + Y181C ; result: >20 µM
Cc1cc(C#N)cc(C)c1Oc1nc(Nc2ccc(C#N)cc2)nc(N)c1Br ; strain or isolate: IIIB ; changes: E138K ; result: 0.0067 µM
Cc1ccc2sn(/N=C/c3ccccc3[N+](=O)[O-])c(=O)c2c1 ; result: >100 µM
Cc1cc(C)cc(S(=O)(=O)c2c(C(=O)NS(=O)(=O)c3ccc(F)cc3)[nH]c3ccc(Cl)cc23)c1 ; changes: L100I ; result: 8.86 µM
CC(=O)Nc1cnc(Oc2c(C)cc(Br)cc2C)nc1Nc1ccc(C#N)cc1 ; strain or isolate: IIIB ; result: 32 µM
CCc1c(Cc2ccc(C)cc2)n(COCC2CC2)c(=O)[nH]c1=O ; strain or isolate: A17 ; changes: K103N/Y181C ; result: >100 µM
Fc1cccc(-c2nc(-c3nnc(C45CCC6CC(CC4C6)C5)o3)cs2)c1 ; strain or isolate: IIIB ; result: >125 µM
O=c1c2ccccc2sn1/N=C/c1ccc2c(c1)OCO2 ; changes: K103N + Y181C ; result: >17 µM
CCOCn1c(Cc2ccc(C)cc2)c(CC)c(=O)[nH]c1=O ; strain or isolate: IIIB ; result: 5.3 µM
Clc1ccc(-c2nnc3n2N=C(c2ccccc2)CS3)cc1Cl ; strain or isolate: IIIB ; result: >1.97 µg/mL
CCc1c(C(=O)c2cccc(C#N)c2)n(Cc2cccc(C#N)c2)c(=O)[nH]c1=O ; strain or isolate: IIIB ; changes: Y181C ; result: 46 µM
Fc1ccc(-c2nc(-c3nnc(C45CCC6CC(CC4C6)C5)o3)cs2)cc1 ; strain or isolate: IIIB ; result: >75.2 µM
O=C1CS/C(=N\c2nc3ccccc3s2)N1c1ccc(I)cc1 ; strain or isolate: IIIB ; result: >29 µM
COc1cc(/C=N/n2sc3ccccc3c2=O)ccc1O ; changes: Y181C ; result: >15 µM
CC(=O)Nc1cnc(Oc2c(Cl)cccc2Cl)nc1Nc1ccc(C#N)cc1 ; strain or isolate: RES056 ; result: >193 µM
Cc1ccnc2c1NC(=O)c1cccnc1N2C1CC1 ; changes: K103N ; result: 6.039 µM
CCc1c(Cc2ccc(OC)c(OC)c2)n(COCCCc2ccccc2)c(=O)[nH]c1=O ; strain or isolate: IIIB ; result: >38 µM
Oc1ccc(-c2nnc3sc(-c4cccnc4)nn23)c(Cl)c1Cl ; strain or isolate: IIIB ; result: >80.05 µg/mL
CCOCn1c(Cc2ccccc2)c(C(C)C)c(=O)[nH]c1=O ; strain or isolate: N119 ; changes: Y181C ; result: >20 µM
O=C(NC(=S)NCCc1ccccc1Cl)c1csc(-c2ccccc2)n1 ; strain or isolate: IIIB ; result: >32.22 µM
Cc1cc(C#N)cc(C)c1Oc1ncc(N)c(Nc2ccc(C#N)cc2)n1 ; strain or isolate: RES056 ; result: 0.33 µM
Cc1cc(C)cc(S(=O)(=O)c2c(C(=O)NS(=O)(=O)C(F)(F)F)[nH]c3ccc(Cl)cc23)c1 ; strain or isolate: RES056 ; result: >253 µM
C#CCOCn1c(Cc2ccccc2)c(CO)c(=O)[nH]c1=O ; strain or isolate: Clinical isolates ; changes: Y181C ; result: >100 µM
Cc1cc(C#N)cc(C)c1Oc1nc(NC2CCC(NCc3ccc(O)cc3)CC2)nc2ccsc12 ; strain or isolate: IIIB ; changes: NNRTI-resistant (RT E138K) ; result: 4.02 µM
Cc1ccc2sn(/N=C/c3ccc([N+](=O)[O-])cc3[N+](=O)[O-])c(=O)c2c1 ; result: >100 µM
Cc1cc(C)cc(S(=O)(=O)c2c(C(=O)NS(=O)(=O)c3ccccc3)[nH]c3ccc(Cl)cc23)c1 ; changes: L100I ; result: 6.81 µM
Cc1cc(C=O)cc(C)c1Oc1ncc([N+](=O)[O-])c(Nc2ccc(C#N)cc2)n1 ; strain or isolate: IIIB ; result: 0.61 µM
Cc1ccc(-c2nc(-c3nnc(C45CCC6CC(CC4C6)C5)o3)cs2)cc1 ; strain or isolate: IIIB ; result: >105.7 µM
N#Cc1ccc(Nc2nc(Oc3c(Cl)cccc3Cl)ncc2NC(=O)C(F)(F)F)cc1 ; strain or isolate: IIIB ; result: 0.14 µM
O=c1c2ccccc2sn1/N=C/c1ccc([N+](=O)[O-])cc1[N+](=O)[O-] ; result: >100 µM
S=C(Nc1ccc(Cl)c(Cl)c1)Nc1nc2ccccc2s1 ; strain or isolate: IIIB ; result: >15 µM
CCOC(=O)[C@H](C)NC(O)(Oc1ccccc1)Oc1nc(N(C)C)nc(C(C)c2c(F)cccc2F)c1C ; changes: Y181C resistant ; result: 1 µM
CC(NC(=S)Nc1nc2ccccc2s1)c1ccccc1 ; strain or isolate: IIIB ; changes: N119 ; result: 8.2 µM
CCOCn1c(C(=O)c2cccc(C#N)c2)c(CC)c(OC)nc1=O ; strain or isolate: IIIB ; changes: Y181C ; result: >100 µM
S=C(Nc1ccc(I)cc1)Nc1nc2ccccc2s1 ; strain or isolate: IIIB ; result: >9.5 µM
Cc1cc(/C=C/C#N)cc(C)c1Oc1nc(NC2CCN(Cc3ccccc3C#N)CC2)nc2ccsc12 ; strain or isolate: IIIB ; changes: NNRTI-resistant (RT Y188L) ; result: 0.124 µM
CCc1c(Cc2cc(C)cc(C)c2)n(COCCc2ccccc2)c(=O)[nH]c1=O ; strain or isolate: IIIB ; result: 0.03 µM
CCOCn1c(C(=O)c2cccc(C#N)c2)c(CC)c(=O)[nH]c1=O ; strain or isolate: IIIB ; changes: K103N + Y181C ; result: 67 µM
Clc1ccc(-c2nnc3sc(-c4ccc[nH]4)nn23)cc1Cl ; strain or isolate: IIIB ; result: >68.48 µg/mL
CCc1c(Cc2cc(C)cc(C)c2)n(Cc2ccc(C#CCF)cc2)c(=O)[nH]c1=O ; strain or isolate: IIIB ; changes: K103N + Y181C ; result: >2 µM
Cc1cc(C)cc(S(=O)(=O)c2c(C(=O)NS(=O)(=O)c3ccc(F)cc3F)[nH]c3ccc(Cl)cc23)c1 ; changes: E138K ; result: 2.01 µM
Clc1ccc(-c2nn3c(-c4ccc(Cl)c(Cl)c4)nnc3s2)cc1Cl ; strain or isolate: IIIB ; result: >67.8 µg/mL
CC(=O)Nc1cnc(Oc2c(C)cc(C#N)cc2C)nc1Nc1ccc(C#N)cc1 ; strain or isolate: RES056 ; result: >313 µM
Cc1cc(/C=C/C#N)cc(C)c1Oc1nc(NC2CCN(Cc3ccccc3Br)CC2)nc2ccsc12 ; strain or isolate: IIIB ; changes: NNRTI-resistant (RT L100I) ; result: 0.0478 µM
CC(C)C(NS(=O)(=O)c1ccc(Cl)cc1)c1nnc(Nc2ccc(F)cc2)s1 ; strain or isolate: IIIB ; result: >8.81 µM
Brc1ccc(-c2nc(-c3nnc(C45CCC6CC(CC4C6)C5)o3)cs2)cc1 ; strain or isolate: IIIB ; result: >110 µM
Cc1ccc2sn(/N=C/c3ccc(F)cc3)c(=O)c2c1 ; changes: Y181C ; result: >15 µM
Clc1ccc(-c2nnc3sc(-c4ccco4)nn23)cc1Cl ; strain or isolate: IIIB ; result: >27.51 µg/mL
C#CCOCn1c(Cc2ccccc2)c(CF)c(=O)[nH]c1=O ; result: 10 µM
N#Cc1ccc(Nc2nc(Oc3c(Cl)cc(Cl)cc3Cl)ncc2N)cc1 ; strain or isolate: RES056 ; result: 2.8 µM
C=C(C)COCn1c(Cc2ccccc2)c(CO)c(=O)[nH]c1=O ; strain or isolate: Clinical isolates ; changes: Y181C ; result: >20 µM
Cc1cc(C)cc(S(=O)(=O)c2c(C(=O)NCCP(=O)(O)O)[nH]c3ccc(Cl)cc23)c1 ; strain or isolate: IIIB ; result: 4.42 µM
CCc1c(Cc2ccc(OC)c(OC)c2)n(COCc2ccccc2)c(=O)[nH]c1=O ; strain or isolate: IIIB ; result: 12 µM
O=c1c2ccccc2sn1/N=C/c1ccc(O)cc1O ; result: >21 µM
COc1ccc(Nc2nnc(C(NS(=O)(=O)c3ccc(Cl)cc3)C(C)C)s2)cc1 ; strain or isolate: IIIB ; result: >10.08 µM
O=c1c2ccccc2sn1/N=C/c1ccccc1O ; changes: EFV-resistant (K103 V179D P225H) ; result: >18 µM
CCCS(=O)(=O)NC(=O)c1[nH]c2ccc(Cl)cc2c1S(=O)(=O)c1cc(C)cc(C)c1 ; changes: K103N ; result: 2.48 µM

A second listing of 7 rows from above:

SMILES,strain or isolate,changes,result
CCOCn1c(C(=O)c2cccc(C#N)c2)c(CC)c(OC)nc1=O,IIIB,Y181C,>100 µM
COc1ccc(Nc2nnc(C(C)NS(=O)(=O)c3ccc(Cl)cc3)s2)cc1,IIIB,-,>21.38 µM
CCc1c(Cc2cc(C)cc(C)c2)n(Cc2ccc(C#CCF)cc2)c(=O)[nH]c1=O,IIIB,K103N + Y181C,>2 µM
CCOC(=O)[C@H](C)NC(O)(Oc1ccccc1)Oc1nc(N(C)C)nc(C(C)c2c(F)cccc2F)c1C,-,Y181C resistant,1 µM
S=C(Nc1ccc(I)cc1)Nc1nc2ccccc2s1,IIIB,-,>9.5 µM
Cc1cc(/C=C/C#N)cc(C)c1Oc1nc(NC2CCN(Cc3ccccc3F)CC2)nc2ccsc12,IIIB,NNRTI-resistant (RT L100I),0.0304 µM
Cc1cc(/C=C/C#N)cc(C)c1Oc1nc(NC2CCN(Cc3ccccc3C#N)CC2)nc2ccsc12,IIIB,NNRTI-resistant (RT Y188L),0.124 µM

Rows are shuffled and stem from different studies. An empty or dashed field is not shown.